For nine compounds, Ratio IC50 results are on record in ChEMBL document CHEMBL1151424, “In vitro efficacy of new antifolates against trimethoprim-resistant Bacillus anthracis” (Antimicrob Agents Chemother, 2007).

The experiment can be described thus: Selectivity ratio of IC50 for human recombinant DHFR to IC50 for histidine-tagged Bacillus anthracis Sterne recombinant DHFR.
With `COc1cc(Cc2cnc(N)nc2N)cc(/C=C/C(=O)N2N=Cc3ccccc3C2CCCO)c1OC` (centres undefined), the Ratio IC50 is above 208.
With `COc1cc(Cc2cnc(N)nc2N)cc(CCC(=O)N2N=Cc3ccccc3C2C)c1OC` (centres undefined) the figure was above 304.
The result for `COc1cc(Cc2cnc(N)nc2N)cc(/C=C/C(=O)N2N=Cc3ccccc3C2c2ccc(CO)cc2)c1OC` (centres undefined) reads above 237.
With `COc1cc(Cc2cnc(N)nc2N)cc(/C=C/C(=O)N2N=Cc3ccccc3C2C2CCCCC2)c1OC` (centres undefined) the figure was above 73.
In the case of `COc1cc(Cc2cnc(N)nc2N)cc(/C=C/C(=O)N2N=Cc3ccccc3C2c2ccc(CO)cc2)c1O` (centres undefined), the Ratio IC50 is above 348.
For the compound `COc1cc(Cc2cnc(N)nc2N)cc(/C=C/C(=O)N2N=Cc3ccccc3C2c2ccccc2CN(C)C)c1OC` (centres undefined), the Ratio IC50 is above 105.
The result for `COc1ncc(C2c3ccccc3C=NN2C(=O)/C=C/c2cc(Cc3cnc(N)nc3N)cc(OC)c2OC)c(OC)n1` (centres undefined) reads above 37; that for `COC(=O)C(C)(C)C1c2ccccc2C=NN1C(=O)/C=C/c1cc(Cc2cnc(N)nc2N)cc(OC)c1OC` (centres undefined), 2710.
The result for `COc1cc(Cc2cnc(N)nc2N)cc(/C=C/C(=O)N2N=Cc3ccccc3C2c2ccccc2)c1OCCN1CCOCC1` (centres undefined) reads above 124.
